Measured values: ChEMBL document CHEMBL6087459 (J Med Chem, 2025)

Test system: Cryptosporidium parvum
Test: Antiparasitic activity against Cryptosporidium parvum Iowa oocyst infected in human HCT-8 cells assessed as reduction in asexual replication pre-infected with cells for 3 hrs followed by compound addition and measured after 48 hrs by staining based automated fluorescence microscopic analysis
Conditions: strain Iowa

CCOP(=O)(CC)Oc1ccc(-c2nc(NCc3ccc(F)cc3)c3c(CC)nn(C)c3n2)cc1 (stereo unspecified)
EC50: 4.4 µM
